Experimental data taken from patent EP0751768B1, “ANTI-VIRAL AND ANTI-CANCER AGENT” (Radopath Pharmaceuticals International Limited, priority 1994, dated 1995).

Tested on: HIV-I IIIB
Experiment: Acute infection assay, HIV core antigen ELISA (HIV-I IIIB)
Assay type: cell-based
Details: Against HIV-I IIIB; for SI (Selectivity Index), Average: average line; for SI (Selectivity Index): single determinations, ratio CC50 / IC50

Structure (SMILES) | SI (Selectivity Index), Average | SI (Selectivity Index)
O=C(O)c1cc([N+](=O)[O-])c(Cl)c([N+](=O)[O-])c1 [C4, 4-chloro-3,5-dinitrobenzoic acid] | 2.4 | 2.5 and 2.3
NC(=O)c1cc([N+](=O)[O-])c(Cl)c([N+](=O)[O-])c1Cl [C2] | – | 35
NC(=O)c1cc([N+](=O)[O-])c(Cl)c([N+](=O)[O-])c1 [C5] | – | 10
O=C(O)c1cc([N+](=O)[O-])cc([N+](=O)[O-])c1Cl [C7, 2-chloro-3,5-dinitrobenzoic acid] | 8 | –

Where “and” joins values, the source holds several entries; their conditions need not be identical. Identical values can stand only once. The index is printed as in the source, without its formula.
